In this experiment the target is T1, rNav1.2a/Kv2.1 VSD II paddle chimera (rat), P15387.
T1 chain: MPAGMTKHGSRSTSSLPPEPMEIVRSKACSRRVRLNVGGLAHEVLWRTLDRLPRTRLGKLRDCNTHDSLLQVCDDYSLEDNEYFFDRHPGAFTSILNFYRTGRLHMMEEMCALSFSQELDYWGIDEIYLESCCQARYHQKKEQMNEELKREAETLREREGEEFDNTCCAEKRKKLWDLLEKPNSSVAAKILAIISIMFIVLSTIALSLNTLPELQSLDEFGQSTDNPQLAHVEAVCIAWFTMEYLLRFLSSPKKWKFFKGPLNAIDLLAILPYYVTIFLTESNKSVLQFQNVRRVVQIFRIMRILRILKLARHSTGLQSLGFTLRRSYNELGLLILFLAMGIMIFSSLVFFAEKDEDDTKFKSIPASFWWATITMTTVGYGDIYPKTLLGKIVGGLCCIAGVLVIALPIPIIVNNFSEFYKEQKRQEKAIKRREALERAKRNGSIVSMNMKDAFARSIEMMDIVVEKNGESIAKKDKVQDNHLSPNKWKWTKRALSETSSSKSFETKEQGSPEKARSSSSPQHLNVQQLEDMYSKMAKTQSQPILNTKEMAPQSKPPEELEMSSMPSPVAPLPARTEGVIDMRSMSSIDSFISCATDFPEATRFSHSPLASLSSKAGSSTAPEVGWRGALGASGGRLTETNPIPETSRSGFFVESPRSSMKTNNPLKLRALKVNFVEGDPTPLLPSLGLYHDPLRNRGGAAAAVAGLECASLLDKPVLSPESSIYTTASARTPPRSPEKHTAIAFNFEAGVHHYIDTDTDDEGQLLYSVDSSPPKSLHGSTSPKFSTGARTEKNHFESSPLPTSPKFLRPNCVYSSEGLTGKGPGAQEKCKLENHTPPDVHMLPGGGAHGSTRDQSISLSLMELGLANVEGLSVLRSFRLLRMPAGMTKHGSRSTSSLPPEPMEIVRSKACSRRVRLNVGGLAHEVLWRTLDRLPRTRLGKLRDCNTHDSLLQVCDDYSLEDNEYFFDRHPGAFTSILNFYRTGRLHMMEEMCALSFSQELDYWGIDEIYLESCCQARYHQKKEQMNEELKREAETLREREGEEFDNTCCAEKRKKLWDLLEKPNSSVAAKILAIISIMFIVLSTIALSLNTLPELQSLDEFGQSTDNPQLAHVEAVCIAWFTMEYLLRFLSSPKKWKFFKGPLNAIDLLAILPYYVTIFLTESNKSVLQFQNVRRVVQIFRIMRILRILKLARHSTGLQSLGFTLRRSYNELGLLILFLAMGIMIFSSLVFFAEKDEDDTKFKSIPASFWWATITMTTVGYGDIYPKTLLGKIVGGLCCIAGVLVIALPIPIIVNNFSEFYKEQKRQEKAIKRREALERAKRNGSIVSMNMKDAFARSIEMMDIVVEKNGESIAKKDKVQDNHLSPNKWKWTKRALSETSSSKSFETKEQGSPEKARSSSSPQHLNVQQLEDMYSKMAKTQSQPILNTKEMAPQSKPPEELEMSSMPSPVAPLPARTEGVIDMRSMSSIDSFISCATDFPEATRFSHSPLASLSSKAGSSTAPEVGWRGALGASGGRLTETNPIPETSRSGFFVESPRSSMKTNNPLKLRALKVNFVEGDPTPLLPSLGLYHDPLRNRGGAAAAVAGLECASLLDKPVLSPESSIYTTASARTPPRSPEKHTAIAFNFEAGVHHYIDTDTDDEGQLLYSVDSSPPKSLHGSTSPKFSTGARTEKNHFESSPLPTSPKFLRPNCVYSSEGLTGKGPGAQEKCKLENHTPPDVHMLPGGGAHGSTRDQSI
As to the kind of experiment: cell-based or functional assay.

Here are results for 1 molecule from patent publication US20180003631A1.

B1: CssIV from Centruroides suffusus suffusus, P60266 20-85 (peptide)
chain: KEGYLVNSYTGCKFECFKLGDNDYCLRECRQQYGKGSGGYCYAFGCWCTHLYEQAVVWPLPNKTCN
modifications: not checked
For the molecule B1, the depolarizing shift in V1/2 at 1 µM toxin amounted to 14 mV.
